# Measured values taken from PubChem BioAssay AID704 (The Scripps Research Institute Molecular Screening Center, 2007).
# Protein sequences, listed by entry. Tags and fused reporters are not part of them.
# UniProt P05866, whole entry: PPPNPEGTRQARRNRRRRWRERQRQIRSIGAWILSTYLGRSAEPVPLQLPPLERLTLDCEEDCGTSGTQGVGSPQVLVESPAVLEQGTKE
# The entries are a selection whose mix differs from that of the whole data set. Active and inactive are the calls of the source.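 The calls were made as follows: active = inhibition above the screen-wide mean plus 3 SD (cut at about 35% in these data); inactive = the rest.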
# Target: Protein Rev (Human immunodeficiency virus type 1 group M subtype B (isolate WMJ22)) (UniProt P05866)
# Experiment: disruptors of Rev peptide-RRE RNA complex – biochemical, FRET, protein-RNA interaction, primary screen (AID 704);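 also: 0% = median DMSO wells and 100% = median Neomycin B control wells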
# Details: Rev peptide-RRE RNA binding, at 8 µM, stronger effect = higher value
# Procedure, shortened: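 Test system: labelled RRE RNA duplex and labelled Rev peptide. Times: 5 min compound–RNA preincubation, then 15 min with peptide, 25 °C. Doses: single-dose 8 µM. Measured by: FRET, excitation 480 nm, emission 540 nm donor and 671 nm acceptor. Measure: % inhibition of FRET ratio versus controls.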
row,Compound,inhibition
1,CC(C)(C)c1ccc(OP(C)(=O)O)cc1,inactive: 4.66%
2,CP(=O)(Nc1ccc(Cl)cc1)Oc1ccc(F)cc1 (stereo not given),inactive: 1%
3,COc1ccccc1OP(C)(=O)Nc1c(C)n(C)n(-c2ccccc2)c1=O (stereo not given),inactive: 3.38%
4,CP(=O)(Oc1ccccc1)N1CCOC1=O (stereo not given),inactive: -2.24%
5,CCN(CC)CC(O)COC(=O)C(O)(c1ccccc1)C1CCCCC1 (stereo not given),inactive: -5.53%
6,CP(=O)(OC12CC3CC(CC(C3)C1)C2)OC12CC3CC(CC(C3)C1)C2,inactive: -1.28%
7,Cc1nc2ccc3ccccc3c2o1.O=[N+]([O-])c1cc([N+](=O)[O-])c(O)c([N+](=O)[O-])c1,inactive: 11%
8,COc1ccccc1OP(C)(=O)Nc1ccc(C)c(C)c1 (stereo not given),inactive: 0.89%
9,COc1ccccc1OP(C)(=O)Nc1ccc(C)cc1C (stereo not given),inactive: -5.7%
10,CP(=O)(Nc1ccccn1)Oc1ccccc1 (stereo not given),inactive: 8.92%
11,CCc1ccc(OP(C)(=O)O)cc1,inactive: 3.28%
12,Cc1c(NP(C)(=O)Oc2ccc(C(C)C)cc2)c(=O)n(-c2ccccc2)n1C (stereo not given),inactive: 0.24%
13,COc1ccc(OP(C)(=O)Nc2ccccn2)cc1 (stereo not given),inactive: 5%
14,CN(C)CCOC(=O)C(O)(c1ccccc1)C1CCCC1 (stereo not given),inactive: 0.28%
15,CP(=O)(Nc1ccccc1F)Oc1ccccc1 (stereo not given),inactive: 0.76%
16,CP(=O)(Nc1ccccc1)Oc1ccc(F)cc1 (stereo not given),inactive: 7.26%
17,CCN(CC)CCCOC(=O)C(O)(c1ccccc1)C1CCCCC1 (stereo not given),inactive: -3.75%
18,CN(C)CCOC(=O)C(O)(c1ccccc1)C1CCCCC1 (stereo not given),inactive: -5.45%
19,COc1ccc(OP(C)(=O)Nc2cccc(Br)c2)cc1 (stereo not given),inactive: 5.4%
20,CP(=O)(Nc1ccc2c(c1)OCCO2)Oc1ccccc1 (stereo not given),inactive: 3.35%
21,CCOP(C)(=S)SCC(=O)NC(C)(CC)C(=O)O (stereo not given),inactive: 0.86%
22,Cc1nc2ccc3ccccc3c2s1.O=[N+]([O-])c1cc([N+](=O)[O-])c(O)c([N+](=O)[O-])c1,inactive: 8.76%
23,COc1ccccc1OP(C)(=O)Nc1c(C)cccc1C (stereo not given),inactive: -1.73%
24,Cc1ccc(C)c(NP(C)(=O)Oc2ccccc2)c1 (stereo not given),inactive: -2.85%
25,Cc1cc(C)cc(OP(C)(=O)Nc2ccccn2)c1 (stereo not given),inactive: 3.56%
26,Cc1cc(C)cc(OP(C)(=O)Nc2ccc(C)cc2C)c1 (stereo not given),inactive: 0.96%
27,COc1ccc(OP(C)(=O)Nc2cccc(F)c2)cc1 (stereo not given),inactive: 1.79%
28,CP(=S)(Nn1cnnc1)Oc1ccccc1 (stereo not given),inactive: 3.49%
29,CP(=O)(Nc1ccccn1)Oc1ccc(Cl)cc1 (stereo not given),inactive: -0.57%
30,CP(=O)(NC(=O)Nc1ccccc1)Oc1ccccc1 (stereo not given),inactive: 3.25%
